This note sets out measurements from PMC10140725 (Scientific Reports, 2023).

Assay [1] deals with T1, hemagglutinin (HA) of H1N1 influenza A strain A/Hickox/JY2/1940, mature HA1/HA2 trimer (Influenza A virus H1N1, …).
T1 construct: also called 6ONA; copies: 3 + 3
In words: SEC. To be noted: both partners purified.

The target in assay [2] is T2, hemagglutinin (HA) of H1N1 influenza A strain A/Denver/57/1957, mature HA1/HA2 (Influenza A virus H1N1, strain …).
T2 construct: also called A/Denver/57 HA; A/Denver/1957 HA; copies: 3 + 3
Put plainly: crystal structure. To be noted: both partners purified.

B1: anti-influenza head-binding antibody C05 fragment antigen binding (Fab) (Fab, V domains shown)
VH: EVQLQESGGGLVQPGESLRLSCVGSGSSFGESTLSYYAVSWVRQAPGKGLEWLSIINAGGGDIDYADSVEGRFTISRDNSKETLYLQMTNLRVEDTGVYYCAKHMSMQQVVSAGWERADLVGDAFDVWGQGTMVTVSS
VL: DIQLTQSPSSLSASVGDRVTLTCQASQDIRKFLNWYQQKPGKGPKLLIYDASNLQRGVPSRFSGGGSGTDFTLIISSLQPEDVGTYYCQQYDGLPFTFGGGTKVVIK
notes: also called C05 Fab; C05 antibody; not shown: His6, C-terminal, kept
With B1, the binding result in assay [1] is listed as “no binding”; in assay [2], “binds”.
